Earlier results on 1 substance are cited in publication PMC4554341.

In the series the target is His37 (UniProt position 37, IIGILHLILWI). The experiment in a line: NMR. The settings on record: Membrane-bound tetramer.

As for “Matrix protein 2 (M2) transmembrane peptide M2TM, M2(22-46) (Influenza A virus)”, the pKa (usually the pH at which an ionisable group is half protonated) was 7.6.
